According to publication PMC4347215 (Nature Communications, 2015):

Target: NA of seasonal H1N1 virus A/Brisbane/59/2007 on virus (Influenza A virus A/Brisbane/59/2007 …, UniProt D5F1R0, strain)
Assay: ELISA; virus-coated plates; data not shown
Details: one partner purified

B1: monoclonal antibody CD6 (whole IgG) (antibody, V domains shown)
VH: QVKLQESGGGLVQPKGSLKLSCAASGFTFNTYAMNWVRQAPGKGLEWVARIRSKSNNYATFYADSVKDRFTISRDDSQSMLYLQMHNLKTDDTAMYYCVRPSIYYYASGYLDVWGAGTTVTVSS
VL: QIVLSQSPAILSASPGEKVTMTCRTSSSVSYMHWYQQKPGSSPKPWIYATSNLASGVPFRFSGSGSGTSYSLTISRVEAEDAATYYCQQWNSNPPTFGGGTKLEIK
notes: copies: 2 + 2
B1: no binding.
